Values from PubChem BioAssay AID624099 (ICCB-Longwood, 2012).
Assay: 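Host factors E2 relies on to silence an HPV18 LCR reporter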 (primary screen). Cell system: human C33A cervical carcinoma cells (HPV-negative) stably expressing BPV1 E2 and an HPV18 LCR luciferase reporter. Reagents: siRNA pool against human genes, 40 nM. Timing: 72 h. Measurement: 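HPV18 LCR reporter light per well, converted to plate-wise z-scores that exclude control wells, and averaged over triplicate plates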. Reading the numbers: mean z-score and z-score: higher = stronger reporter signal, weaker E2 silencing. Active means: 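Mean z ≥ 2 together with z ≥ 2 in two or more of the three replicates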.
The deposit covers about 21,000 reagents; shown is an unselected part. 497 of them (2.4%) were called active. 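Higher z means weaker E2 silencing; only reporter increases were scored, and knock-downs that hurt cell survival may mask genuine repressor factors.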

| gene symbol | mean z-score | z-score, replicate A | z-score, replicate B | z-score, replicate C | Outcome |
| --- | --- | --- | --- | --- | --- |
| WBP2NL (GeneID 164684) | 1.45 | 1.32 | 1.49 | 1.55 | inactive |
| ERC2 (GeneID 26059) | 0.34 | 0.45 | 0.26 | 0.31 | inactive |
| QRFPR (GeneID 84109) | 0.78 | 0.68 | 0.96 | 0.71 | inactive |
| KLF11 (GeneID 8462) | 0.68 | 0.77 | 0.44 | 0.83 | inactive |
| MKRN3 (GeneID 7681) | -0.7 | -0.71 | -0.47 | -0.9 | inactive |
| FLJ44955 (retired record) (GeneID 401278) | -0.29 | -0.24 | -0.45 | -0.18 | inactive |
| DHX16 (GeneID 8449) | 0.38 | 0.62 | 0.24 | 0.27 | inactive |
| RAB40AL (GeneID 282808) | -0.14 | 0.17 | -0.22 | -0.36 | inactive |
| PLEKHG4 (GeneID 25894) | 0.68 | 0.71 | 0.73 | 0.61 | inactive |
| STXBP1 (GeneID 6812) | 0.05 | 0.3 | 0.01 | -0.15 | inactive |
| FGF7P6 (GeneID 387628) | -0.12 | 0.14 | -0.01 | -0.49 | inactive |
| NXF5 (GeneID 55998) | -1.69 | -1.61 | -1.59 | -1.87 | inactive |
| LRRCC1 (GeneID 85444) | 2.24 | 2.16 | 2.39 | 2.18 | active |
| NEK3 (GeneID 4752) | -0.81 | -0.66 | -1.08 | -0.71 | inactive |
| COPZ1 (GeneID 22818) | -1.34 | -1.5 | -1.17 | -1.35 | inactive |
| FLJ10246 (retired record) (GeneID 55104) | -0.04 | -0.13 | 0.1 | -0.09 | inactive |
| FBXO4 (GeneID 26272) | 1.67 | 1.62 | 1.75 | 1.63 | inactive |
| KRTAP19-1 (GeneID 337882) | -1.18 | -1.06 | -1.41 | -1.08 | inactive |
| KLC2 (GeneID 64837) | -1.14 | -1.26 | -1.08 | -1.08 | inactive |
| LOC153778 (retired record) (GeneID 153778) | 1.02 | 1.56 | 0.59 | 0.92 | inactive |

The list goes on; the last 5 above are carried over.
| gene symbol | mean z-score | z-score, replicate A | z-score, replicate B | z-score, replicate C | Outcome |
| --- | --- | --- | --- | --- | --- |
| FLJ10246 (retired record) (GeneID 55104) | -0.04 | -0.13 | 0.1 | -0.09 | inactive |
| FBXO4 (GeneID 26272) | 1.67 | 1.62 | 1.75 | 1.63 | inactive |
| KRTAP19-1 (GeneID 337882) | -1.18 | -1.06 | -1.41 | -1.08 | inactive |
| KLC2 (GeneID 64837) | -1.14 | -1.26 | -1.08 | -1.08 | inactive |
| LOC153778 (retired record) (GeneID 153778) | 1.02 | 1.56 | 0.59 | 0.92 | inactive |
| PPP1R26 (GeneID 9858) | -0.08 | -0.36 | -0.15 | 0.27 | inactive |
| GCLM (GeneID 2730) | 0.45 | 0.64 | 0.36 | 0.35 | inactive |
| LRRTM1 (GeneID 347730) | 1.13 | 0.88 | 1.35 | 1.16 | inactive |
| OR7C1 (GeneID 26664) | 1.72 | 1.45 | 1.5 | 2.2 | inactive |
| CDK5RAP1 (GeneID 51654) | -0.55 | -0.95 | -0.18 | -0.53 | inactive |
| CYP1A2 (GeneID 1544) | -0.13 | -0.05 | -0.08 | -0.25 | inactive |
| GDPD5 (GeneID 81544) | -0.31 | -0.18 | -0.56 | -0.19 | inactive |
| TECR (GeneID 9524) | 0.73 | 0.56 | 0.97 | 0.66 | inactive |
| ASH2L (GeneID 9070) | -1.82 | -1.73 | -1.92 | -1.79 | inactive |
| ZCCHC14 (GeneID 23174) | 0.55 | 0.92 | 0.84 | -0.12 | inactive |
| EGFL7 (GeneID 51162) | 0.17 | 0.27 | -0.13 | 0.36 | inactive |
| OR2T29 (GeneID 343563) | -3.92 | -4.25 | -3.76 | -3.74 | inactive |
| ABHD16A (GeneID 7920) | 1.41 | 1.78 | 1.26 | 1.2 | inactive |
| COXFA4L3 (GeneID 84419) | -0.87 | -0.63 | -1.01 | -0.98 | inactive |
| MT1F (GeneID 4494) | -0.87 | -0.69 | -0.97 | -0.94 | inactive |
| LOC402620 (retired record) (GeneID 402620) | 0.66 | 0.66 | 0.74 | 0.59 | inactive |
| CHAF1A (GeneID 10036) | 4.49 | 4.55 | 4.64 | 4.27 | active |
| FAM149B1P1 (GeneID 388181) | -0.16 | -0.07 | -0.18 | -0.22 | inactive |
| EXO1 (GeneID 9156) | -1.37 | -0.92 | -1.5 | -1.68 | inactive |
| ZNF195 (GeneID 7748) | -0.34 | -0.35 | -0.49 | -0.17 | inactive |
| C9orf72 (GeneID 203228) | 0.79 | 0.7 | 0.78 | 0.89 | inactive |
| FCGR1A (GeneID 2209) | -1.03 | -1.04 | -1.01 | -1.06 | inactive |
| PAX7 (GeneID 5081) | 3.13 | 3.26 | 2.96 | 3.17 | active |
| RGMA (GeneID 56963) | -0.79 | -0.59 | -1.02 | -0.74 | inactive |
| TRIM9 (GeneID 114088) | -0.66 | -0.25 | -0.6 | -1.13 | inactive |
| TBCD (GeneID 6904) | -0.3 | 0.23 | -0.51 | -0.63 | inactive |
| EPB41L2 (GeneID 2037) | -0.58 | -0.76 | -0.3 | -0.66 | inactive |
| ZFP69 (GeneID 339559) | -0.23 | -0.29 | -0.31 | -0.1 | inactive |
| LOC348162 (retired record) (GeneID 348162) | 0.1 | 0 | 0.25 | 0.06 | inactive |
| VEZF1 (GeneID 7716) | 0.02 | 0.07 | -0.39 | 0.36 | inactive |
| TUBA1C (GeneID 84790) | -1.93 | -1.76 | -1.98 | -2.06 | inactive |
| LINC02656 (GeneID 399716) | 0.54 | 0.85 | 0.46 | 0.31 | inactive |
| LINC03106 (GeneID 100506422) | -0.94 | -0.93 | -0.91 | -0.97 | inactive |
| WFDC10A (GeneID 140832) | -0.25 | -0.41 | -0.53 | 0.19 | inactive |
| GPC6 (GeneID 10082) | -0.52 | -0.54 | -0.44 | -0.58 | inactive |
| LOC730011 (retired record) (GeneID 730011) | -4.17 | -3.96 | -4.27 | -4.29 | inactive |
| TINF2 (GeneID 26277) | 0.04 | 0.23 | 0.03 | -0.12 | inactive |
